A mixed list of measured activities; the numbers were collected in NIAID ChemDB.

Common to all: tests in culture; species: Mycobacterium avium; endpoint: MIC

a–b is a range or a potency band. Rows are shuffled and stem from different studies. Blank or dashed fields: not listed here.

SMILES,strain or isolate,conditions,result
CCCCCCCCCOc1ccccc1NC(=O)OCCN(C)C,MY330/88,-,8 µM
CC(C)C1=CC2=CC[C@@H]3C(C)(C)CCC[C@@]3(C)[C@@H]2CC1,-,-,>100 µg/mL
CCS/C(N)=N/N=C/c1nc2ccccc2n1C,CNCTC D5/93,-,500 µM
[N-]=[N+]=NC[C@H]1O[C@H](O[C@H]2O[C@H](CN=[N+]=[N-])[C@@H](O)[C@H](O)[C@H]2O)[C@H](O)[C@@H](O)[C@@H]1O,NJ3350,-,>128 µg/mL
CCOC1Oc2ccccc2C(=O)/C1=C\Nc1ccc(O)c(C(=O)O)c1,MY 80/72,-,>100 µg/mL
CCS/C(N)=N\N=C\c1ccc(C(F)(F)F)cc1,ATCC 19421,-,0.78 µg/mL
CC(C)C[C@H](NC(=O)OCc1ccccc1)c1cnc(-c2ccccc2)[nH]1,MY330/88,21 d,>500 µM
CCCCCCCOc1ccc(NC(=O)OCCN2CCCCC2)cc1,MY330/88,-,16 µM
O=c1oc2ccc(Cl)cc2c(=O)n1-c1ccc(Br)cc1,MY330/88,-,8 µM
CCC(C)S/C(N)=N/N=C/c1ccncc1,CNCTC MY66/72,-,63 µM
CC(=O)Oc1c(Cl)cccc1C(=O)Nc1ccc(Cl)cc1,MY330/88,-,8 µg/mL
C(/C=C/c1ccccc1)=Nc1ccc(Cn2ccnc2)cc1,103317,-,55.7 µM
O=c1oc2ccc(Cl)cc2c(=O)n1-c1ccccc1,MY330/88,-,31 µM
CC(=O)Oc1c(Cl)cccc1C(=O)Nc1ccc(C(F)(F)F)cc1,MY330/88,-,8 µg/mL
Clc1ccc(C(Cn2ccnc2)OC/C=C/c2ccccc2)c(Cl)c1,103317,-,21.5 µM
Cc1ccc(O)c(C(=O)NCc2cccc([N+](=O)[O-])c2)c1,MY330/88,-,32 µg/mL
CC(C)OC1Oc2ccc([N+](=O)[O-])cc2C(=O)/C1=C\Nc1ccc(C(=O)O)c(O)c1,MY 80/72,-,50 µg/mL
CCCCOc1ccccc1NC(=O)OCCN(C)C,MY330/88,-,250 µM
CCCCCCCCS(=O)(=O)NC[C@H]1O[C@H](O[C@H]2O[C@H](CNS(=O)(=O)CCCCCCCC)[C@@H](O)[C@H](O)[C@H]2O)[C@H](O)[C@@H](O)[C@@H]1O,NJ3404,-,32–64 µg/mL
CCCCCCCS/C(N)=N/N=C/c1ccc2ccccc2n1,CNCTC D5/93,-,32 µM
S=c1oc2ccc(Cl)cc2c(=S)n1-c1ccc(Cl)c(Cl)c1,MY330/88,-,16 µM
CN[C@@H]1[C@H](O[C@H]2[C@H](O[C@H]3[C@H](O)[C@@H](O)[C@H](N=C(N)N)[C@@H](O)[C@@H]3N=C(N)N)O[C@@H](C)[C@]2(O)C=O)O[C@@H](CO)[C@H](O)[C@H]1O,103317,-,8 µg/mL
CC(=O)Oc1c(Cl)cccc1C(=O)Nc1cccc(Cl)c1,MY330/88,-,8 µg/mL
O=c1oc2ccc(Cl)cc2c(=S)n1-c1ccc(Cl)cc1,MY330/88,-,16 µM
O=C(N[C@@H](Cc1ccccc1)c1cnc(-c2ccc([N+](=O)[O-])cc2)[nH]1)OCc1ccccc1,MY330/88,14 d,>62.5 µM
CCCCOc1cccc(NC(=O)OCCN(C)C)c1,MY330/88,-,62.5 µM
CCS/C(N)=N/N=C/c1nc2ccccc2o1,CNCTC MY80/72,-,250 µM
Cc1cccc(C(N)=Nc2nc(-c3ccccn3)cc3ccccc23)c1,SK-32,-,4 µg/mL
CCCCCOc1cccc(NC(=O)OC(COCC)CN2CCCCC2)c1,MY330/88,-,32 µM
COc1ccc(Cn2c(=O)oc3ccc([N+](=O)[O-])cc3c2=O)cc1,MY330/88,-,1000 µM
C=C[C@](C)(O)CC[C@H]1C(=C)CC[C@H]2C(C)(C)[C@@H](OC(C)=O)CC[C@]12C,-,-,>100 µg/mL
CCCCCCS/C(N)=N/N=C/c1ccc2ccccc2n1,CNCTC MY80/72,-,63 µM
Cc1ccc2nc(SCc3ccccc3)[nH]c2c1,MY330/88,-,62 µM
Cc1ccc(-n2c(=O)oc3ccc(Cl)cc3c2=S)cc1,MY330/88,-,31 µM
CO[C@H]1/C=C/O[C@@]2(C)Oc3c(C)c(O)c4c(O)c(cc(O)c4c3C2=O)NC(=O)/C(C)=C\C=C\[C@H](C)[C@H](O)[C@@H](C)[C@@H](O)[C@@H](C)[C@H](OC(C)=O)[C@@H]1C,Boreggi,-,5 µg/mL
O=C(Nc1ccc(N2CCSCC2)cc1)c1ccc(-c2ccccc2)cc1,103317,-,82.5 µM
Cc1c(F)c(N2CCNC(C)C2)cc2c1c(=O)c(C(=O)O)cn2C1CC1,MS-6,-,0.5 µg/mL
CCCCCCOc1cccc(NC(=O)OCC[NH+]2CCCC2)c1,MY330/88,-,32 µM
N#CCCSc1cc(C#N)ccn1,330/88,-,500 µM
O=c1oc2ccc(Cl)cc2c(=S)n1-c1cccc(Cl)c1,MY330/88,-,31 µM
Cc1ccc2nc(SCc3cc(C(F)(F)F)cc(C(F)(F)F)c3)[nH]c2c1,MY330/88,-,125 µM
CC[C@@H](CO)NCC[C@H]1O[C@H](O[C@H]2O[C@H](CCN[C@@H](CC)CO)[C@@H](O)[C@H](O)[C@H]2O)[C@H](O)[C@@H](O)[C@@H]1O,3 to 5 clinical isolates,-,>128 µg/mL
O=c1oc2c(Cl)cc(Cl)cc2c(=O)n1Cc1ccccc1,MY330/88,-,250 µM
CCC(CO)NC[C@H]1N[C@@H](CO)[C@@H](O)[C@@H]1O,3 to 5 clinical isolates,-,>128 µg/mL
CCCCS(=O)(=O)NC[C@H]1O[C@H](O[C@H]2O[C@H](CNS(=O)(=O)CCC)[C@@H](O)[C@H](O)[C@H]2O)[C@H](O)[C@@H](O)[C@@H]1O,NJ3404,-,>128 µg/mL
O=c1oc2ccc(Cl)cc2c(=S)n1-c1ccccc1,MY330/88,-,31 µM
Cc1ccc2nc(SCc3ccc(C#N)cc3)[nH]c2c1,MY330/88,-,32 µM
CC(=O)Oc1cc(Cl)ccc1C(=O)N(C(C)=O)c1ccc(Br)cc1,MY330/88,-,8 µg/mL
CCCCCOc1ccccc1NC(=O)OCCN1CCCCC1,MY330/88,-,125 µM
c1ccc(-c2ccc(CNc3ccccc3N3CCOCC3)cc2)cc1,103317,-,4 µg/mL
COc1ccc(Cn2c(=O)oc3cc(Cl)ccc3c2=O)cc1,MY330/88,-,125 µM
COc1ccc(CSc2nc3ccc(C)cc3[nH]2)cc1,MY330/88,-,62 µM
CCCCCCCCCCCCCCCCCCN(C)C[C@H]1O[C@H](O[C@H]2O[C@H](CN(C)CCCCCCCCCCCCCCCCCC)[C@@H](O)[C@H](O)[C@H]2O)[C@H](O)[C@@H](O)[C@@H]1O,NJ168,-,>128 µg/mL
Cc1ccc(CNC(=S)c2ccccc2O)cc1,MY330/88,-,0.25 µg/mL
Clc1ccc(CNc2cccc(-n3ccnc3)c2)cc1,103317,-,4 µg/mL
O=C(OCc1ccccc1)N1CCC[C@H]1c1cnc(-c2ccccc2)[nH]1,MY330/88,21 d,>500 µM
CCC(CO)NC[C@H]1OC(OC)[C@@H](O)[C@@H]1O,3 to 5 clinical isolates,-,>128 µg/mL
Cc1ccc(O)c(C(=S)NCc2ccc(Cl)cc2)c1,MY330/88,-,0.5 µg/mL
COc1cccc(CSc2nc3ccc(C)cc3[nH]2)c1,MY330/88,-,>32 µM
NC(N)=NC[C@H]1O[C@H](O[C@H]2O[C@H](CN=C(N)N)[C@@H](O)[C@H](O)[C@H]2O)[C@H](O)[C@@H](O)[C@@H]1O,NJ3404,-,>128 µg/mL
O=c1oc2ccc(Cl)cc2c(=O)n1-c1ccc(Cl)c(Cl)c1,MY330/88,-,8 µM
CCOC(=O)CSc1ccnc(C(N)=S)c1,330/88,-,500 µM
C=C[C@@](C)(CC[C@H]1C(=C)CC[C@H]2C(C)(C)[C@@H](OC(C)=O)CC[C@]12C)OC(C)=O,-,-,>100 µg/mL
Clc1ccc(/C(Cn2ccnc2)=N\OCc2cccc3ccccc23)c(Cl)c1,103317,-,19.5 µM
CCOC1Oc2ccccc2C(=O)/C1=C\Nc1cccc(C(=O)O)c1O,MY 80/72,-,100 µg/mL
C(=C\c1ccccc1)/COC(Cn1ccnc1)c1ccccc1,103317,-,13.2 µM
CC[C@H](CO)NCC[C@H]1O[C@H](O[C@H]2O[C@H](CCN[C@H](CC)CO)[C@@H](O)[C@H](O)[C@H]2O)[C@H](O)[C@@H](O)[C@@H]1O,3 to 5 clinical isolates,-,>128 µg/mL
CCCCCCCCOc1ccc(NC(=O)OCCN(C)C)cc1,MY330/88,-,8 µM
N#Cc1cc(N2CCCCC2)ccn1,330/88,-,1000 µM
CC1(C)Nc2ccccc2C(=S)N1c1ccc(Cl)c(Cl)c1,MY330/88,-,62.5 µg/mL
CCCCCCCCCCCCCCCCS(=O)(=O)NC[C@H]1O[C@H](O[C@H]2O[C@H](CNS(=O)(=O)CCCCCCCCCCCCCCCC)[C@@H](O)[C@H](O)[C@H]2O)[C@H](O)[C@@H](O)[C@@H]1O,NJ168,-,>64 µg/mL
N#Cc1cc(SCC(=O)NN)ccn1,330/88,-,500 µM
S=c1oc2ccc(Cl)cc2c(=S)n1-c1ccc(Br)cc1,MY330/88,-,16 µM
CC(C)c1ccc(N2C(=S)c3cc(Cl)ccc3NC2(C)C)cc1,MY330/88,-,>62.5 µg/mL
c1ccc(-c2ccc(CNc3cccc(N4CCOCC4)c3)cc2)cc1,103317,-,>16 µg/mL
Fc1ccc(/C(Cn2ccnc2)=N/OC/C=C/c2ccccc2)cc1,103317,-,23.8 µM
CCOC(=O)CSc1ccnc(C#N)c1,330/88,-,1000 µM
O/N=C(\Cn1ccnc1)c1ccc(Cl)cc1Cl,103317,-,118 µM
Oc1ccccc1C(=S)NCc1cccc(Cl)c1,MY330/88,-,1 µg/mL
CCOC1Oc2ccc(C)cc2C(=O)/C1=C\Nc1ccc(C(=O)O)c(O)c1,MY 80/72,-,25 µg/mL
c1ccc(-c2ccc(CNc3ccc(N4CCOCC4)cc3)cc2)cc1,103317,-,11.2 µM
COc1ccc(-n2c(C)nc3ccc(Cl)cc3c2=S)cc1,MY330/88,-,125 µg/mL
Cc1ccc(CSc2nc3ccc(C)cc3[nH]2)cc1,MY330/88,-,32 µM